Pooled drug test results. Numbers come from NIAID ChemDB, via PubChem.

All rows: target-level tests; species: HIV-1; target: Reverse transcriptase

Inhibition is in % at the dose shown (toxicity tests: loss of growth or viability). ICn is the concentration giving n% inhibition. Fold resistance has wild type as its base. Neighbouring rows are from separate reports. An empty or dashed field is not shown.

structure	dose	changes	endpoint	read by	strain	result
O=C1CSC(c2c(Cl)ncnc2Cl)N1c1nccs1	10 µg/mL		inhibition	RT activity / ELISA / absorbance		3.9%
Cc1cn([C@H]2CC[C@@H](COP(=O)(O)OP(=O)(O)OP(=O)(O)O)O2)c(=O)[nH]c1=O		RT-Y181I	fold resistance	RT activity		3.5
O=C1c2ccncc2C(=O)N1CCNC(=S)Nc1ccc(Br)cn1		RT-L100I	Ki	nucleotide incorporation		>5 µM
O=C1CSC(c2c(Cl)ncnc2Cl)N1c1ccccn1	100 µg/mL		inhibition	RT activity / ELISA / absorbance		30.72%
Nc1ccn([C@@H]2CS[C@H](COP(=O)(O)OP(=O)(O)OP(=O)(O)O)O2)c(=O)n1		RT-L74V	Ki	nucleotide incorporation / radiometric		2.1 µM
O=C(O)Cn1cnc2c(Oc3ccccc3[N+](=O)[O-])nc(NC(=O)OCc3ccccc3)nc21		K103N	Ki	nucleotide incorporation / radiometric	NNRTI-resistant	160 µM
Nc1ncnc2c1ncn2CCOCP(=O)(O)OP(=O)(O)OP(=O)(O)O		RT-T215Y	Ki	nucleotide incorporation / radiometric		0.26 µM
Cc1cc(S(N)(=O)=O)ccc1NC(=O)COc1ccc(Cl)cc1C(=O)c1cc(Cl)cc(C#N)c1		RT-K103N	fold resistance	fluorescence		1.05
O=c1c2cccn2c2ccccc2n1CCNC(=S)Nc1ccc(Br)cn1		RT-K103N	Ki	nucleotide incorporation		0.1 µM
CC(C)(C)OC(=O)Cn1cnc2c(Oc3ccccc3[N+](=O)[O-])nc(NC(=O)OCc3ccccc3)nc21		K103N	Ki	nucleotide incorporation / radiometric	NNRTI-resistant	331 µM
Nc1ncnc2c1ncn2[C@H]1CC[C@@H](COP(=O)(O)OP(=O)(O)OP(=O)(O)O)O1		RT-K65R	Ki	nucleotide incorporation / radiometric		2.4 µM
COc1ccc(/C=C/NC(=O)Nc2ccc(Cl)cn2)cc1OC		RT-K103N	Ki	nucleotide incorporation		>20 µM
O=P(O)(O)OP(=O)(O)O		RT-Q161L	fold resistance			2.1
O=C1CSC(c2c(Cl)ncnc2Cl)N1c1nc(Cl)cc(Cl)n1	100 µg/mL		inhibition	RT activity / ELISA / absorbance		44.9%
Cc1c(Sc2ccccc2)n(COCCO)c(=O)[nH]c1=O		RT-H221Y	fold resistance			4
Nc1ccn([C@H]2CC[C@@H](COP(=O)(O)OP(=O)(O)OP(=O)(O)O)O2)c(=O)n1		RT-L74V	Ki	nucleotide incorporation / radiometric		0.77 µM
CCN1c2ncccc2C=Cc2cccnc21	1 µM		inhibition	nucleotide incorporation		97%
COc1ccc2c(c1)N(C(=O)OC(C)C)[C@@H](CSC)C(=S)N2		RT-Y188L	IC50	scintillation proximity / radiometric		2 µM

2 of the rows above, restated:

structure | dose | changes | endpoint | read by | strain | result
Cc1cn([C@H]2CC[C@@H](COP(=O)(O)OP(=O)(O)OP(=O)(O)O)O2)c(=O)[nH]c1=O |  | RT-Y181I | fold resistance | RT activity |  | 3.5
CCN1c2ncccc2C=Cc2cccnc21 | 1 µM |  | inhibition | nucleotide incorporation |  | 97%